Test: Fluorescence spectroscopy of ICG and ICG HIP complexes in ethanol
Assay type: physicochemical
[1] = free molecule or in a HIP complex

## CC1(C)C(/C=C/C=C/C=C/C=C2\N(CCCCS(=O)(=O)O)c3ccc4ccccc4c3C2(C)C)=[N+](CCCCS(=O)(=O)[O-])c2ccc3ccccc3c21 [ICG, indocyanine green]
[1]
  emission maxima: 822 nm
  excitation maxima: 785 nm
Range 0.0006 - 1 mg/mL, self-quenching above
  concentration at maximum emission intensity: 0.1 mg/mL
